Measured values from several laboratories, pooled; numbers as filed in NIAID ChemDB.

All rows: growth or infection tests; organism: Parainfluenza virus

Lines come from different laboratories, so protocols vary. ECn: concentration that inhibits the pathogen or its effect by n%. An empty or dashed field is not shown.

SMILES | read-out | strain or isolate | read by | cell line | result
Nc1nccc2c1ncn2[C@@H]1CC[C@@H](O)[C@H]1O | MIC | TYPE 3 | - | - | 0.2 µg/mL
COC(=O)[C@]1(C)CCC[C@]2(C)c3cc(Br)c4nc[nH]c4c3CCC12 | EC50 | TYPE 3 | plaque count | VERO | >4 µg/mL
C=C(N=CC)c1nc(-c2cccc(C)c2)n([C@@H]2O[C@H](CO)[C@@H](O)[C@H]2O)n1 | EC50 | TYPE 3 | cytopathic effect | VERO | >40 µg/mL
CSc1ncnc2c1ncn2[C@@H]1OC2COP(=O)(O)OC2[C@H]1O | MIC | TYPE 3 | - | - | 100 µg/mL
Nc1nc2c(ncn2[C@@H]2C=C(CCO)[C@@H](O)[C@H]2O)c(=O)[nH]1 | EC50 | TYPE 3 | plaque count | VERO | >25 µg/mL
CCOC(=O)c1cc(C#N)c2[nH]c3ccccc3n2c1=O | EC50 | C243 (TYPE 3) | plaque count | VERO | 150 µg/mL
CC=NC(=N)c1nc(-c2cccc(OC)c2)n(C/C=C/c2ccccc2)n1 | EC50 | TYPE 3 | cytopathic effect | VERO | >40 µg/mL
Cc1nc(Cc2n[nH]c(=S)n2-c2ccccc2)nn1C | MIC | TYPE 3 | - | - | >80 µg/mL
CC=NC(=N)c1nc(-c2ccccc2)n(Cc2ccccc2)n1 | EC50 | TYPE 3 | cytopathic effect | VERO | >10 µg/mL
Nc1nccc2c1ncn2[C@@H]1C[C@H](CO)[C@@H](O)[C@H]1O | MIC | TYPE 3 | - | - | 0.2 µg/mL
C=C(N=CC)c1nc(-c2cccc(OC)c2)n(C2O[C@H](CO)[C@@H](O)[C@H](O)[C@H]2O)n1 | EC50 | TYPE 3 | cytopathic effect | VERO | >200 µg/mL
COC(=O)Nc1nc2c3c(ccc2[nH]1)[C@@]1(C)CCC[C@@](C)(C(=O)OC)C1CC3 | EC50 | TYPE 3 | plaque count | VERO | >4 µg/mL
N#Cc1cc(C#N)c2[nH]c3ccccc3n2c1=O | EC50 | GREER (TYPE 2) | plaque count | VERO | 2.8 µg/mL
COC(=O)[C@]1(C)CCC[C@]2(C)c3ccc4nc(-c5ccccc5)c(-c5ccccc5)nc4c3CCC12 | EC50 | TYPE 3 | plaque count | VERO | >4 µg/mL
Nc1ncnc2c1ncn2C[C@H](O)CO | MIC | TYPE 3 | - | - | 240 µg/mL
COC(=O)[C@]1(C)CCC[C@]2(C)c3cc(Br)c4nc(C(F)(F)F)[nH]c4c3CCC12 | EC50 | TYPE 3 | plaque count | VERO | >4 µg/mL
Cc1nc(CC(=O)NN)nn1C | MIC | TYPE 3 | - | - | >80 µg/mL
N#Cc1cc(NC(=O)c2ccccc2)c(=O)n2c1[nH]c1ccccc12 | EC50 | C243 (TYPE 3) | plaque count | VERO | 0.3 µg/mL
CCn1nc(CC(=O)NN=C(C)C)nc1C | MIC | TYPE 3 | - | - | >80 µg/mL
Nc1nccc2c1ncn2[C@@H]1C=C(CCO)[C@@H](O)[C@H]1O | EC50 | TYPE 3 | plaque count | VERO | >25 µg/mL
Nc1nc2c(ccn2[C@@H]2C[C@H](CO)[C@@H](O)[C@@H]2O)c(=O)[nH]1 | MIC | - | - | - | >100 µg/mL
CCn1nc(CC(=O)N/N=C/c2ccco2)nc1C | MIC | TYPE 3 | - | - | >80 µg/mL

A second listing of 3 rows from above:

SMILES | read-out | strain or isolate | read by | cell line | result
CCn1nc(CC(=O)N/N=C/c2ccco2)nc1C | MIC | TYPE 3 | - | - | >80 µg/mL
Nc1ncnc2c1ncn2C[C@H](O)CO | MIC | TYPE 3 | - | - | 240 µg/mL
COC(=O)[C@]1(C)CCC[C@]2(C)c3cc(Br)c4nc[nH]c4c3CCC12 | EC50 | TYPE 3 | plaque count | VERO | >4 µg/mL